According to patent US20240209065A1:
Several values for one entry are separate records, joined by “and”; a condition that tells them apart may be missing. Equal entries are not always repeated.

Target: S proteins (SΔ19) of BA.1, BA.2 and BA.4/5 Omicron subvariant pseudoviruses
Test: cell-based or functional assay

DXP-604 IgG
IC50, pseudovirus assay (HIV platform): 0.091 nM and 0.836 nM
